Results of unrelated studies side by side (data: NIAID ChemDB).

Common to all: tests in culture; agent: Candida parapsilosis; read-out: MFC

Rows are shuffled and stem from different studies. Blank or dashed fields: not listed here.

smiles | method | strain or isolate | result
CCOc1ccc2nc3cc(N=C4NC(=O)/C(=C\c5ccc([N+](=O)[O-])o5)S4)ccc3c(N)c2c1 | broth dilution | - | 125 µg/mL
Cc1ccc(/C=N/Nc2ccnc3cc(Cl)ccc23)cc1 | - | - | 40 µg/mL
CC1(C)CC[C@]2(C(=O)O)CC[C@]3(C)C(=CC[C@@H]4[C@@]5(C)CC[C@H](OC6O[C@H](CO)[C@@H](O)[C@H](O)[C@H]6OC6O[C@H](CO)[C@@H](O)[C@H](O)[C@H]6O)C(C)(C)[C@@H]5CC[C@]43C)[C@@H]2C1 | - | Clinical isolates | >100 µg/mL
O=C(c1ccccc1)C(c1ccccc1)n1nnc2ccccc21 | broth dilution | - | >256 µg/mL
C[C@H]1[C@H](O)[C@@H](C)/C=C/C=C/C=C/C=C/C=C/C=C/C=C/[C@H](O[C@@H]2O[C@H](C)[C@@H](O)[C@H](N)[C@@H]2O)C[C@@H]2O[C@](O)(C[C@@H](O)C[C@@H](O)CC[C@H](O)[C@@H](O)C[C@@H](O)CC(=O)O[C@H]1C)C[C@H](O)[C@H]2C(=O)O | broth dilution | MTCC 1965 | 1 µg/mL
Clc1ccc(C(c2ccccc2)n2ccnc2)cc1 | broth dilution | - | 32 µg/mL
C[C@@H]1O[C@@H](O[C@H]2[C@H](O[C@H]3CC[C@]4(C)[C@H]5CC=C6[C@@H]7CC(C)(C)CC[C@]7(C(=O)O)CC[C@@]6(C)[C@]5(C)CC[C@H]4C3(C)C)OC[C@H](O)[C@@H]2O)[C@H](O)[C@H](O)[C@H]1O | - | Clinical isolates | >100 µg/mL
Clc1ccc(C(c2ccccc2)n2cncn2)cc1 | broth dilution | - | >256 µg/mL
CC(C)CC1NC(=O)CC(CCCCCCCCC(C)O)OC(=O)C(CC(C)C)NC(=O)C(CC(C)C)NC(=O)C(CC(C)C)NC(=O)C(C(C)C)NC(=O)C(CC(=O)O)NC(=O)C(CC(C)C)NC1=O | visual reading | MTCC 19658 | 2 µg/mL
CC1(C)CC[C@]2(C(=O)O)CC[C@]3(C)C(=CC[C@@H]4[C@@]5(C)CC[C@H](OC6O[C@H](CO)[C@@H](O)[C@H](O)[C@H]6O)[C@@](C)(CO)[C@@H]5CC[C@]43C)[C@@H]2C1 | - | Clinical isolates | >100 µg/mL
c1ccc(C(c2ccccc2)n2cncn2)cc1 | broth dilution | - | 128 µg/mL
O/N=C\c1ccc(O)cc1 | broth dilution | - | >7290 µM
CN[C@H]1CC[C@@H](c2ccc(Cl)c(Cl)c2)c2ccccc21 | broth dilution | MMRL1594 | 24 µg/mL
C[C@@H]1O[C@@H](O[C@H]2[C@H](O)[C@@H](O)C(OC3[C@H](O[C@H]4CC[C@]5(C)[C@H]6CC=C7[C@@H]8CC(C)(C)CC[C@]8(C(=O)O)CC[C@@]7(C)[C@]6(C)CC[C@H]5C4(C)C)OC[C@H](O)[C@@H]3O)O[C@@H]2CO)[C@H](O)[C@H](O)[C@H]1O | - | Clinical isolates | >100 µg/mL
c1ccc(C(c2ccccc2)n2cnc3ccccc32)cc1 | broth dilution | - | >256 µg/mL

The first 2 rows once more:

smiles	method	strain or isolate	result
CCOc1ccc2nc3cc(N=C4NC(=O)/C(=C\c5ccc([N+](=O)[O-])o5)S4)ccc3c(N)c2c1	broth dilution	-	125 µg/mL
Cc1ccc(/C=N/Nc2ccnc3cc(Cl)ccc23)cc1	-	-	40 µg/mL